Among the data in PubChem BioAssay AID1549 (Sanford-Burnham Center for Chemical Genomics, 2009) are Kd values, retold here.

For this experiment, the target named is Influenza A virus M2 proton channel (A/TW/4845/1999 H1N1). Description: NMR binding screen, influenza A virus M2 proton channel, Kd (AID 1549). The following applies: M2 protein.

Molecules are shown by their SMILES. Active and inactive are the calls of the source. The rule behind the calls is not given here. Bounds are passed on as bounds.

For orientation: Kd means the constant that tells how readily two partners part at equilibrium. As to `Cc1c2non([O-])c-2c(C)[n+](=O)[n+]1[O-]`, the Kd is inactive: > 4 mM. The result for `C[C@H]1C(=O)O[C@@H]2CCN3CC=C(COC(=O)[C@](C)(O)[C@]1(C)O)[C@H]23` reads inactive: > 4 mM.
